## Primary screen of a compound library

The values are deposited in ChEMBL (CHEMBL3988442, “University of Dundee, Small-Polar-MMV Screening Library” (2021)).

The filed quantity is “Percent Effect” (%). The controls that fix the scale are not given in the record; negative values are as filed. This is part of a subset picked to be rich in strong results. A dash means the value is not listed here; it may have been measured.

Mtb cholesterol medium: 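Whole-cell growth test on Mycobacterium tuberculosis, read after 4 days in a medium based on cholesterol and the lipid DPPC; the read-out is not stated. Tested at 500 µM. The record gives no direction; compounds that gave an IC50 in retests scored well above the rest, so higher reads as more growth inhibition. About 18,000 compounds were tested under these conditions; 5% (about 900) showed 50% or more at least once.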
Mtb glucose medium: 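Growth of Mycobacterium tuberculosis over 3 days (7H9 medium with glucose and tyloxapol); the read-out is not stated. Concentration: 500 µM. Higher reads as more growth inhibition (inferred: compounds with an IC50 in retests scored well above the rest). About 18,000 compounds were tested under these conditions; 7.9% (about 1,400) showed 50% or more at least once.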

Compound | Mtb cholesterol medium | Mtb glucose medium
CC(O)C(=O)N(C)c1ccccc1 (stereo not drawn) | - | 7.566
O=C(CC1Nc2ccccc2NC1=O)NC1CCCC1 (stereo not drawn) | - | 31.53
CC(=O)c1ccccc1-n1cccn1 | - | 6.92
Cc1cc(C)nc(N2CCN(S(C)(=O)=O)CC2)n1 | -19.93 | -
Cc1nonc1C(=O)Nc1cnc(N(C)C)nc1 | 11.58 | -
Cc1cc[nH]c(=O)c1 | - | 1.899
CC1CCCN(C(=O)CN2CCC(O)CC2)C1 (stereo not drawn) | 0.3284 | -
N#Cc1ccc(-n2ccc(N)n2)c(F)c1 | - | 14.45
CC(=O)c1cnnn1C | - | -2.19
CN(CC(=O)N1CCSCC1)C(=O)OC(C)(C)C | - | 4.426
COc1cccc(OC)c1OCCCN1CCNCC1 | 3.792 | -
CN(C)CCN(C)S(N)(=O)=O | - | 11.34
NCc1nc(-c2ccc(OC(F)(F)F)cc2)no1 | 84.27 | 76.6
COCC(=O)N1CCN(C(=O)c2ncncc2Br)CC1 | -6.324 | -
NCC1(O)CCN(Cc2ccccc2)CC1 | -16.77 | -
CC(=O)NCc1cccc(OCc2ccccn2)c1 | - | 37.57
O=C(CSc1nnc(NCc2ccco2)s1)NC1CC1 | 13.14 | 26.93
NC(Cc1ccccn1)C(F)(F)F (stereo not drawn) | -5.804 | -
CNC(=O)c1ccc(CN)o1 | - | 8.178
Cn1c(=O)c2[nH]c(N3CCNCC3)nc2n(C)c1=O | 10.61 | -
O=C(NCCCc1ncc[nH]1)[C@H]1CCC[C@H](O)C1 | - | -5.329
CC(C)C(O)CCNC(=O)Cc1cccc(O)c1 (stereo not drawn) | - | 66.05
CC(C)c1[nH][nH]c(=O)c1CCN | - | 31.67
COCc1noc(CNc2cc(C)nc(N)n2)n1 | - | -1.077
O=C(C1CCNCC1)N1CCc2ccccc2C1 | - | 13.45
CCOC(=O)N1CCN(C(=O)C(C)CC)CC1 (stereo not drawn) | - | 11.22
COc1ccc2c(c1)OCC(C(=O)N(C)CCC#N)C2 (stereo not drawn) | 8.708 | -
CC(C)Oc1cc(N2C[C@@H](C)[C@@](C)(O)C2)nc(N)n1 | 5.194 | -
CN(C)S(=O)(=O)NCCNc1ccc2ccccc2n1 | 52.74 | 71.64
O=C(c1ccc(Br)o1)N1CCN(Cc2ccco2)CC1 | 99.55 | 91.71
CCC=C(C)C(=O)NC1CCN(CC(=O)NC)CC1 | -23.33 | -
COc1ccccc1CCNC(=O)c1ccnn1C | - | 47.32
Cn1nc(C(=O)N2CCCC2c2ccco2)ccc1=O (stereo not drawn) | - | -12.49
CN(C)[C@@H]1CN(C(=O)c2ccccc2Cl)C[C@H]1CO | -14.22 | -
CSc1ncccc1C(=O)NCC(=O)NC1CC1 | -8.828 | -
NC[C@H](O)c1cccc(Cl)c1 | - | 45.63
c1cn2nc(N3CCCC3)ccc2n1 | - | 18.15
Cc1cccc2nc(C(=O)NCCOCCO)c(F)n12 | 7.043 | -
CCS(=O)(=O)N1CCN(C(=O)c2ccccc2O)CC1 | -7.644 | -
COc1ccc(F)cc1C(=O)N1CCC(CN)CC1 | 19.84 | 26.21
CSCc1nc(CNCC2(O)CCCNC2)cs1 (stereo not drawn) | - | 9.915
CC(=O)N1CCN(C(=O)CCc2cc(Cl)cs2)CC1 | - | 40.38
Nc1nc(N)nc(COC(=O)Cc2ccsc2)n1 | - | 14.3
COCCCN(C)C(C(N)=O)c1ccccc1 (stereo not drawn) | - | -2.24
CNC(=O)NCCc1c[nH]c2ncccc12 | -8.572 | -
CC(c1ccon1)N(C)C(=O)c1cccc(N)n1 (stereo not drawn) | -6.159 | -2.205
CN1CCOC(C(=O)Nc2cc(Cl)cc3c2OCC3)C1 (stereo not drawn) | - | 27.6
CCc1nc(C(C)N)n[nH]1 (stereo not drawn) | - | 14.44
O=C1NC(=O)c2c(O)cccc21 | 62.05 | 56.22
Cc1ccc(C(=O)NCc2c[nH]nn2)c(F)c1 | - | 30.73
Cc1ncsc1CCCNC(=O)c1cnccn1 | - | 54.77
Cc1ccc(C(C)NC(=O)CN2CCNC(=O)C2)cn1 (stereo not drawn) | - | -11.75
C=C(C)COc1cccc(F)c1C(N)=O | - | -4.386
O=C1CCN(Cc2ccc(OC(F)F)c(Cl)c2)CCN1 | 33.78 | -
CCCN1CCN(C(=O)c2c(F)cccc2F)CC1 | - | 5.776
CCC[C@H]1CN(C(=O)CCCc2cn[nH]c2)C[C@@H]1N | - | 3.053
OCC1(NCc2ccc(F)c(Cl)c2)CCOCC1 | 8.776 | -
CO[C@H]1CNCC1NC(=O)Cc1nc(C)sc1C (stereo partly drawn) | - | 0.3226
Cc1ccc(CNc2ccc(N(C)C)nc2)o1 | -1112 | -
CNCc1nnc2n1CCC2 | - | -14.76
Cc1cc(C(=O)Nc2ccc3c(c2)CCCN3)on1 | 62.15 | 57.29
COCCC(C)NC(=O)c1cc(O)nc2ccccc12 (stereo not drawn) | -23.09 | -
c1cc(N2CCCNCC2)ccn1 | - | -6.828
NCc1cnn(-c2ccc(F)cc2)c1 | 21.8 | 41.15
NCC1CCC2(CCCCC2)O1 (stereo not drawn) | - | 11.64
O=c1c2ccccc2nnn1CN1CCCSCC1 | - | -2.218
NC1CCC(=O)c2ccccc21 (stereo not drawn) | 16.49 | -
CCc1cccc(NC(=O)CCNC(C)=O)c1 | - | 20.46
CCn1ccnc1C1CCN(C(=O)CCOC)CC1 | - | 10.85
O=C(c1cc(Cl)c[nH]1)N1CCOC(c2cccs2)C1 (stereo not drawn) | 68.05 | 68.32
NC(=O)COC(=O)c1cccnc1-n1cncn1 | - | -0.06953
COCC(C)Nc1ccccc1CN1C(=O)CCC1=O (stereo not drawn) | - | 24.47
NC1CC(c2cc(NCCN3CCOCC3)ncn2)C1 (stereo not drawn) | -3.845 | -
NC(=O)c1cc(N2CCOCC2)nc2ccc(F)cc12 | -14 | -
COCCCNC(=O)c1c(C)oc(C)c1S(N)(=O)=O | -10.35 | -

7 of the entries, repeated:

* OCC1(NCc2ccc(F)c(Cl)c2)CCOCC1 : Mtb cholesterol medium: 8.776%
* Cc1ncsc1CCCNC(=O)c1cnccn1 : Mtb glucose medium: 54.77%
* Cc1cccc2nc(C(=O)NCCOCCO)c(F)n12 : Mtb cholesterol medium: 7.043%
* COCc1noc(CNc2cc(C)nc(N)n2)n1 : Mtb glucose medium: -1.077%
* Cc1ccc(C(=O)NCc2c[nH]nn2)c(F)c1 : Mtb glucose medium: 30.73%
* CCn1ccnc1C1CCN(C(=O)CCOC)CC1 : Mtb glucose medium: 10.85%
* CO[C@H]1CNCC1NC(=O)Cc1nc(C)sc1C (stereo partly drawn) : Mtb glucose medium: 0.3226%